Assay results published in US11879893B2, “Rapid detection test for SARS-CoV-2” (priority 2020, dated 2024).

Target: T1, 3CL (Severe acute respiratory syndrome coronavirus 2, UniProt P0DTC1)
T1 construct: 6xHIS-tag (N); TEV-protease cleavage site (ENLYFQG) (N); made in house; host or cells: Rosetta BL21 E. coli, pET14b
Format: biochemical, SARS-CoV-2
Conditions: RT for 5 hrs, 0.2 mg/mL

BSA
enzyme activity after incubation with reaction stabilizer: retained its activity
